Like-named read-outs stand apart in the source and are kept apart here.
Columns and labels:
[1] = target: T1, BC2L-C-Nt (N-terminal lectin domain of BC2L-C) (Burkholderia cenocepacia, UniProt B4EH86); assay: Isothermal titration calorimetry (ITC) affinity for BC2L-C-Nt; assay type: binding; settings: 25 °C, 20 mM Tris HCl pH 7.0, 100 mM NaCl, average of at least two independent measurements
[2] = target: T1, BC2L-C-Nt (N-terminal lectin domain of BC2L-C); settings: ITC; cited from earlier work

Amino acid sequences for entries named in this document (tags omitted). Residues count along the entry.
UniProt B4EH86, 1-132 limits assumed: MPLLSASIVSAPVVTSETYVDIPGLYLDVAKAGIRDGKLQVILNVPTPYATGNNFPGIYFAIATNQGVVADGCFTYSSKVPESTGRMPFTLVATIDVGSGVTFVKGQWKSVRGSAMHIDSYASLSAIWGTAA

Compound | Kd [1] | Kd [2]
C[C@@H]1O[C@H](NC(=O)c2ccc(-c3cccc(CN)c3)o2)[C@@H](O)[C@H](O)[C@@H]1O [compound 3] | 159 µM | 
CO[C@@H]1O[C@@H](C)[C@@H](O)[C@@H](O)[C@@H]1O |  | 2700 µM

Reference: article PMC9919437 (Molecules, 2023)
